Source: PMC6950293, “A Rapid Extraction Method Combined with a Monoclonal Antibody-Based Immunoassay for the Detection of Amatoxins” (Toxins, 2019)

Test system: mAb AMA9G3
Assay: indirect competitive ELISA (cELISA) with mAb AMA9G3
Type: binding, mouse
Conditions: AMA9G3 assay

CC[C@H](C)[C@@H]1NC(=O)CNC(=O)[C@@H]2Cc3c([nH]c4cc(O)ccc34)[S@+]([O-])C[C@H](NC(=O)CNC1=O)C(=O)N[C@@H](CC(N)=O)C(=O)N1C[C@H](O)C[C@H]1C(=O)N[C@@H]([C@@H](C)[C@@H](O)CO)C(=O)N2 [α-amanitin]
limit of detection (conservative estimate): 1 ng/mL
